Results of unrelated studies side by side (data: NIAID ChemDB).

Shared fields: toxicity to cultured cells; cell line: CEM; measure: CC50

CCn is the concentration with n% toxicity to the cells.

{"compound": "Cc1ccc(NC(C#N)c2ccc(OCc3c(Cl)cccc3Cl)cc2)cc1", "read by": "absorbance", "result": "16.8 µM"}
{"compound": "CCCCCCCC(=O)NCCCCC(=O)O", "result": "100 µg/mL"}
{"compound": "Cc1ccc(C)c(C(C)S(=O)(=O)c2cccc[n+]2[O-])c1", "read by": "cell count", "result": ">100 µg/mL"}
{"compound": "C=CCN(CC(=O)N[C@H](C(=O)N[C@H](C(=O)OC)C(C)C)[C@@H](C)CC)C(=O)[C@H](Cc1ccccc1)NC(=O)[C@H](C)N", "result": ">100 µg/mL"}
{"compound": "Cc1ccn2c(C3SCCS3)cnc2c1", "result": "11 µM"}
{"compound": "Cc1ccc(C)c(CSc2c(Cl)ccc[n+]2[O-])c1", "read by": "cell count", "result": "42 µg/mL"}
{"compound": "C=CCN(C(=O)[C@H](Cc1ccccc1)NC(=O)[C@H](C)NC(=O)OC(C)(C)C)C(C)C(=O)N[C@H](C(=O)N[C@H](C(=O)OC)C(C)C)[C@@H](C)CC", "result": ">200 µg/mL"}
{"compound": "O=C(N[C@@H](CCc1ccccc1)C(=O)O)c1ccccc1SSc1ccccc1C(=O)N[C@@H](CCc1ccccc1)C(=O)O", "result": "68 µM"}
{"compound": "COc1cccc(/C=C2/CCc3c2nc2ccccc2c3C(=O)OC(C)C(=O)NC(N)=O)c1OC", "read by": "propidium iodide", "result": ">25 µM"}
{"compound": "CCCC[C@H](NP(=O)(OC[C@@H]1C=C[C@H](n2cc(C)c(=O)[nH]c2=O)O1)Oc1ccccc1)C(=O)OC", "result": "168 µM"}
{"compound": "CCCCCCCCCCOC(=O)CC(=O)O", "result": "32 µg/mL"}
{"compound": "COc1ccc2[nH]c(=O)c(CN(Cc3cccnc3)S(=O)(=O)c3cccc4nsnc34)cc2c1", "read by": "MTT", "result": ">1 µM"}
{"compound": "Cc1ccc(C(=O)Nc2ccc(S(=O)(=O)O)c3cc(S(=O)(=O)O)cc(S(=O)(=O)O)c23)cc1NC(=O)c1cccc(NC(=O)Nc2cccc(C(=O)Nc3cc(C(=O)Nc4ccc(S(=O)(=O)O)c5cc(S(=O)(=O)O)cc(S(=O)(=O)O)c45)ccc3C)c2)c1", "result": "115 µM"}
{"compound": "Cc1ccc(C)c(C(Cl)S(=O)(=O)c2cccc(C)[n+]2[O-])c1", "read by": "cell count", "result": "≥100 µg/mL"}
{"compound": "Cc1ccc(C)c(C(C)S(=O)(=O)c2c(C)ccc[n+]2[O-])c1", "result": "36 µg/mL"}
{"compound": "NCC1(c2ccc(OCc3ccccc3)cc2)CCC(=O)N1Cc1ccccc1", "read by": "absorbance", "result": "23.6 µM"}
{"compound": "COC(=O)CCCCCCCCCCC(=O)O", "result": ">100 µg/mL"}
{"compound": "Cc1cccc(CS(=O)(=O)c2cccc[n+]2[O-])c1", "read by": "cell count", "result": "23 µg/mL"}
{"compound": "Cc1ccc(C)c(CSc2c(Cl)ccc[n+]2[O-])c1", "result": "38 µg/mL"}
{"compound": "Cc1ccc(C)c(C(Cl)S(=O)(=O)c2ccccn2)c1", "read by": "cell count", "result": "38 µg/mL"}
{"compound": "Cn1cc(NC(=O)c2cc(NC(=O)CCCCCC(=O)Nc3cc(C(=O)Nc4cc(C(=O)NCCC(N)=[NH2+])n(C)c4)n(C)c3)cn2C)cc1C(=O)NCCC(N)=[NH2+]", "result": "64.8 µM"}
{"compound": "Cc1cn([C@H]2C=C[C@@H](CO)O2)c(=O)[nH]c1=S", "result": ">430 µM"}
{"compound": "Cc1ccc(CSc2ccccn2)cc1C", "read by": "cell count", "result": "7.1 µg/mL"}
{"compound": "COCCNC(=O)COC(=O)c1c2c(nc3ccccc13)/C(=C\\c1ccc(OC)cc1)CCC2", "read by": "propidium iodide", "result": ">25 µM"}
{"compound": "CCC(CC)Oc1ccc(NC(=O)c2ccccc2SSc2ccccc2C(=O)Nc2ccc(OC(CC)CC)cc2)cc1", "result": "92 µM"}
{"compound": "O=C(N[C@@H](Cc1ccccc1)C(=O)O)c1ccccc1SSc1ccccc1C(=O)N[C@@H](Cc1ccccc1)C(=O)O", "result": ">100 µM"}
{"compound": "Cc1cn([C@@H]2OC3COC4(O)CS(=O)(=O)OC34C2O[Si](C)(C)C(C)(C)C)c(=O)[nH]c1=O", "result": ">100 µM"}
{"compound": "Cc1ccc(C)c(C(Br)S(=O)(=O)c2cccc[n+]2[O-])c1", "read by": "cell count", "result": "81 µg/mL"}
{"compound": "Cc1cccn2c(C3SCCS3)cnc12", "result": "29 µM"}
{"compound": "CNC(=O)CCCCCCCCCCC(=O)O", "result": "165 µg/mL"}
{"compound": "C=CCN(CC(=O)N[C@H](C(=O)N[C@H](C(=O)OC)C(C)C)[C@@H](C)CC)C(=O)OC(C)(C)C", "result": ">100 µg/mL"}
{"compound": "N#CC(c1ccc(F)cc1)S(=O)c1cccc[n+]1[O-]", "read by": "cell count", "result": "0.72 µg/mL"}
{"compound": "Cc1ccc(C)c(C(Cl)S(=O)(=O)c2cc(C)cc[n+]2[O-])c1", "result": ">4 µg/mL"}
{"compound": "Nc1nc(Cl)nc2c1ncn2[C@H]1O[C@H](CO)[C@@H](F)[C@@H]1F", "result": ">100 µM"}
{"compound": "Cc1cccn2c(C3OCCS3)cnc12", "result": "≥100 µM"}
{"compound": "CCNC(=O)NC(=O)C(C)OC(=O)c1c2c(nc3ccccc13)/C(=C\\c1cccc(OC)c1OC)CC2", "result": ">300 µM"}
{"compound": "CCCCCNC(=O)CCCCCCC(=O)O", "result": ">100 µg/mL"}
{"compound": "Cc1ccc(Cl)c(C(C)S(=O)c2cccc[n+]2[O-])c1", "read by": "cell count", "result": "0.19 µg/mL"}
{"compound": "O=C(COC(=O)c1c2c(nc3ccccc13)/C(=C\\c1cccs1)CCC2)NC1CC1", "read by": "propidium iodide", "result": "17 µM"}
{"compound": "O=C(Nc1ccc(Br)cc1)c1ccccc1SSc1ccccc1C(=O)Nc1ccc(Br)cc1", "result": "40 µM"}
{"compound": "Cc1cc(C)c(CS(=O)c2cccc[n+]2[O-])c(C)c1", "read by": "cell count", "result": "12 µg/mL"}
{"compound": "CC(C)CC(NC(=O)c1ccccc1SSc1ccccc1C(=O)NC(CC(C)C)C(=O)O)C(=O)O", "result": "130 µM"}
{"compound": "O=S(=O)(Cc1ccccc1I)c1cccc[n+]1[O-]", "read by": "cell count", "result": "25 µg/mL"}
{"compound": "O=C(O)C[C@H](CC1CCCCC1)NC(=O)c1ccccc1SSc1ccccc1C(=O)N[C@H](CC(=O)O)CC1CCCCC1", "result": "42 µM"}
{"compound": "C=CCN(C(=O)[C@H](Cc1ccccc1)NC(=O)[C@H](C)NC(=O)[C@H](C)NC(=O)[C@H](CO)NC(=O)OC(C)(C)C)C(C)C(=O)N[C@H](C(=O)N[C@H](C(=O)OC)C(C)C)[C@@H](C)CC", "result": ">20 µg/mL"}
{"compound": "Cc1ccc(C)c(C(C)S(=O)(=O)c2ccc(C)c[n+]2[O-])c1", "result": "≥100 µg/mL"}
{"compound": "Nc1nc(=O)n([C@H]2CC[C@@H](CO)O2)cc1F", "result": ">40 µM"}
{"compound": "O=C(Nc1cc(C(F)(F)F)cc(C(F)(F)F)c1)c1ccccc1SSc1ccccc1C(=O)Nc1cc(C(F)(F)F)cc(C(F)(F)F)c1", "result": "3.6 µM"}
{"compound": "CC[C@H](C)[C@H](NC(=O)c1ccccc1SSc1ccccc1C(=O)N[C@H](C(=O)OC(C)(C)C)[C@@H](C)CC)C(=O)OC(C)(C)C", "result": "95 µM"}
{"compound": "Cn1cc(NC(=O)[C@H]2CCC(N)=N2)cc1C(=O)NCCC(=N)N", "result": ">127 µM"}
{"compound": "NCC1(c2ccccc2)CCC(=O)N1Cc1ccccc1", "read by": "absorbance", "result": ">100 µM"}
{"compound": "CCCC(CCC)(NP(=O)(OC[C@@H]1C=C[C@H](n2cc(C)c(=O)[nH]c2=O)O1)Oc1ccccc1)C(=O)OC", "result": "98.6 µM"}
{"compound": "COC(=O)C(c1ccccc1C)S(=O)c1cccc[n+]1[O-]", "read by": "cell count", "result": "52 µg/mL"}
{"compound": "O=C(O)CCCCCCCCCCCCn1nccn1", "result": "22 µg/mL"}
{"compound": "Cc1ccc(C)c(CS(=O)(=O)c2ccccn2)c1", "result": "42 µg/mL"}
{"compound": "CCCCCCCCC(=O)NCCCC(=O)O", "result": "65 µg/mL"}
{"compound": "NS(=O)(=O)c1ccc(NC(=O)c2ccccc2COc2ccccc2C(=O)Nc2ccc(S(N)(=O)=O)cc2)cc1", "result": ">100 µM"}
{"compound": "CC(C)c1ccc(C(C)C)c(CS(=O)c2cccc[n+]2[O-])c1", "read by": "cell count", "result": "11 µg/mL"}
{"compound": "O=C(NC(CC1CCCC1)C(=O)O)c1ccccc1SSc1ccccc1C(=O)NC(CC1CCCC1)C(=O)O", "result": "47 µM"}
{"compound": "Cn1cc(NC(=O)c2cc(NC(=O)CCCCCCCCCC(=O)Nc3cc(C(=O)Nc4cc(C(=O)NCCC(N)=[NH2+])n(C)c4)n(C)c3)cn2C)cc1C(=O)NCCC(N)=[NH2+]", "result": "57 µM"}
{"compound": "O=C(O)CCNC(=O)c1ccccc1SSc1ccccc1C(=O)NCCC(=O)O", "result": ">120 µM"}
{"compound": "CC(Cl)(c1ccccc1)S(=O)(=O)c1cccc[n+]1[O-]", "read by": "cell count", "result": "10 µg/mL"}
{"compound": "COC1=C(C2=C(C3=C(O)C(=O)c4ccccc4C3=O)C(=O)c3ccccc3C2=O)C(=O)c2ccc3c(c2C1=O)C=CC(C)(C)O3", "read by": "MTT", "result": "17 µM"}
{"compound": "Cc1cn([C@@H]2OC3COC4(O)CS(=O)(=O)OC34C2O)c(=O)[nH]c1=O", "result": ">100 µM"}
{"compound": "CC(c1ccc(Cl)cc1)S(=O)c1cccc[n+]1[O-]", "read by": "cell count", "result": "0.64 µg/mL"}
{"compound": "CC[C@H](C)[C@H](NC(=O)C(C)N(C(=O)[C@H](Cc1ccccc1)NC(=O)[C@H](C)NC(=O)OC(C)(C)C)C(Br)CBr)C(=O)N[C@H](C(=O)OC)C(C)C", "result": ">500 µg/mL"}
{"compound": "COc1ccc(CS(=O)(=O)c2cc(C(C)(C)C)cc[n+]2[O-])cc1", "read by": "cell count", "result": "38 µg/mL"}
{"compound": "Cc1cn([C@H]2C=C[C@@H](CO)O2)c(=O)[nH]c1=O", "result": "174 µM"}
{"compound": "CCCCCCNC(=O)CCCCCC(=O)O", "result": ">100 µg/mL"}
{"compound": "Cc1ccc[n+]([O-])c1SCc1c(Cl)cccc1Cl", "read by": "cell count", "result": "31 µg/mL"}
{"compound": "O=C(NCCO)c1ccccc1SSc1ccccc1C(=O)NCCO", "result": "16 µM"}
{"compound": "Cc1ccc(C)c(C(C)S(=O)(=O)c2cc(C)cc[n+]2[O-])c1", "read by": "cell count", "result": "25 µg/mL"}
{"compound": "O=C(O)C[C@H](Cc1ccccc1)NC(=O)c1ccccc1SSc1ccccc1C(=O)N[C@H](CC(=O)O)Cc1ccccc1", "result": "67 µM"}
{"compound": "Cc1ccccc1CS(=O)(=O)c1cccc[n+]1[O-]", "read by": "cell count", "result": "23 µg/mL"}
{"compound": "Cc1cn([C@H]2CC[C@@H](CO)O2)c(=O)[nH]c1=S", "result": ">93 µM"}
{"compound": "Cc1ccc(C)c(CS(=O)(=O)c2cccc[n+]2[O-])c1C", "read by": "cell count", "result": "11 µg/mL"}
{"compound": "CCNC(=O)NC(=O)C(C)OC(=O)c1c2c(nc3ccccc13)/C(=C\\c1cccc([N+](=O)[O-])c1)CCC2", "result": "16 µM"}

Repeating the final 8 entries:

compound,read by,result
Cc1ccc[n+]([O-])c1SCc1c(Cl)cccc1Cl,cell count,31 µg/mL
O=C(NCCO)c1ccccc1SSc1ccccc1C(=O)NCCO,-,16 µM
Cc1ccc(C)c(C(C)S(=O)(=O)c2cc(C)cc[n+]2[O-])c1,cell count,25 µg/mL
O=C(O)C[C@H](Cc1ccccc1)NC(=O)c1ccccc1SSc1ccccc1C(=O)N[C@H](CC(=O)O)Cc1ccccc1,-,67 µM
Cc1ccccc1CS(=O)(=O)c1cccc[n+]1[O-],cell count,23 µg/mL
Cc1cn([C@H]2CC[C@@H](CO)O2)c(=O)[nH]c1=S,-,>93 µM
Cc1ccc(C)c(CS(=O)(=O)c2cccc[n+]2[O-])c1C,cell count,11 µg/mL
CCNC(=O)NC(=O)C(C)OC(=O)c1c2c(nc3ccccc13)/C(=C\c1cccc([N+](=O)[O-])c1)CCC2,-,16 µM

Rows are shuffled and stem from different studies. Blank or dashed fields: not listed here.